Stoichiometry N data for 1 substance are collected here from article PMC4326804.

The target in the assay is His6-tagged nucleocapsid (N) protein of tomato spotted wilt virus (TSWV) (tomato spotted wilt virus (Yunnan isolate)). Description: native gel or EMSA; 4-16% discontinuous blue native PAGE at 4 °C, cathode buffer 100 mM histidine pH 8.0 with 0.002% Coomassie G-250; purified N protein without PEI treatment (carries E. coli RNA); self-association. (A gel shift assay detects complexes by their altered migration in electrophoresis.)

Consider “His6-tagged nucleocapsid (N) protein of tomato spotted wilt virus (TSWV) (natural protein)”, for which the stoichiometry N (in general, a count of units in the complex or per binding partner) is 2.
